{
  "source": "patent US20090155270A1",
  "about": "“CASPASE INHIBITORS, […] 3 INHIBITORS, FOR THE TREATMENT OF INFLUENZA” (priority 2003, published 2009)",
  "tested_on": "influenza A virus strain fowl plague virus (FPV)",
  "type": "cell-based",
  "data": [
    {"substance": "XIAP", "values": [
      {"measurement": "reduction of the influenza virus titer", "value": "approx. 50%"}
    ]}
  ]
}
